## Mutational tolerance of the Zika virus NS2B-NS3 protease

Data from the supplement of Ni et al. 2025, doi:10.1038/s41467-025-63602-z.

The scanned region of Zika virus MR766 is shown below (positions 1-308): NS2B is 2-131, NS3 begins at position 132.
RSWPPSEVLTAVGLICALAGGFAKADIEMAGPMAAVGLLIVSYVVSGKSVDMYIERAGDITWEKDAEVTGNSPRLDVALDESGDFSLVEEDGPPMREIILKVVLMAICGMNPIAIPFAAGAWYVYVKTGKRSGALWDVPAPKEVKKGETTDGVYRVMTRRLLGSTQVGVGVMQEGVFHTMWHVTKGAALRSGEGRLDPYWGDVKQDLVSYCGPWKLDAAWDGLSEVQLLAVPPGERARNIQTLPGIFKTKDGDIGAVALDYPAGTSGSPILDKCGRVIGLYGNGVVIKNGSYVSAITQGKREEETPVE

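Mutant virus pools were grown in human Huh-7.5 cells. The effect is the change in frequency of a mutant, normalised to wild type, as a mean of three replicate libraries (two for positions 207-308).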

Values are log2 effects on growth: 0 is wild type, lower means poorer growth. A change reads original residue, position, new residue. Values above 0 are not proof of better growth: six high scorers were tested one by one, five grew less well than wild type and one about as well.

{"substitution": "K64*", "log2 effect": -8.10}
{"substitution": "G245F", "log2 effect": -5.61}
{"substitution": "V156D", "log2 effect": -5.20}
{"substitution": "V286*", "log2 effect": -6.97}
{"substitution": "S164K", "log2 effect": -1.59}
{"substitution": "K146F", "log2 effect": -2.17}
{"substitution": "D76*", "log2 effect": -7.61}
{"substitution": "E302N", "log2 effect": -0.97}
{"substitution": "V8E", "log2 effect": -5.78}
{"substitution": "G212D", "log2 effect": -5.92}
{"substitution": "T305H", "log2 effect": -0.73}
{"substitution": "L216G", "log2 effect": -7.71}
{"substitution": "I115F", "log2 effect": -2.76}
{"substitution": "I107L", "log2 effect": -0.21}
{"substitution": "T184S", "log2 effect": -1.91}
{"substitution": "Q227*", "log2 effect": -8.02}
{"substitution": "Q227S", "log2 effect": -7.24}
{"substitution": "T305V", "log2 effect": -0.76}
{"substitution": "L38R", "log2 effect": -7.43}
{"substitution": "L100F", "log2 effect": 0.11}
{"substitution": "T10L", "log2 effect": -3.32}
{"substitution": "C108P", "log2 effect": -7.25}
{"substitution": "L39W", "log2 effect": -4.99}
{"substitution": "N71G", "log2 effect": -2.31}
{"substitution": "Y261V", "log2 effect": -5.00}
{"substitution": "D206Y", "log2 effect": -1.56}
{"substitution": "M105Y", "log2 effect": -5.88}
{"substitution": "A66*", "log2 effect": -7.57}
{"substitution": "L38M", "log2 effect": -0.40}
{"substitution": "S72C", "log2 effect": -3.66}
{"substitution": "E303P", "log2 effect": -0.23}
{"substitution": "G37L", "log2 effect": -6.42}
{"substitution": "D206Q", "log2 effect": -6.89}
{"substitution": "A140V", "log2 effect": -6.77}
{"substitution": "G299D", "log2 effect": -5.44}

Extract of 4 entries:

- T10L -> -3.32
- L100F -> 0.11
- G299D -> -5.44
- Q227S -> -7.24

Stop codons (*) centre on -7 and mark the level of dead virus. Position 1 still belongs to NS2A. In the paper, -1 or higher counts as tolerated. Positions 1-103, 104-206 and 207-308 were made and measured as separate libraries.